Test results from patent US10793591B2, “Substituted nucleosides, nucleotides and analogs thereof” (priority 2012, dated 2020).

Columns and labels:
[1] = system: HCV genotype 1b HCV replicon harbored in Huh7 cells; test: Combination testing in HCV replicon (MacSynergy II); type: cell-based
[2] = system: Huh-7 cells containing the self-replicating, subgenomic HCV replicon; test: HCV replicon assay (luciferase reporter); type: cell-based; settings: 72 h, Bright-Glo luciferase
NS5B570-Con1 (Delta-21) = NS5B570-Con1 (Delta-21) (Hepatitis C virus genotype 1b (isolate Con1) (HCV), UniProt Q9WMX2); test: NS5B inhibition assay; settings: 50 nM NS5B570-Con1, cIRES RNA template, 2 h at 37° C.

Which results are given for `CS(=O)(=O)Nc1ccc2c(c1)S(=O)(=O)N=C(C1=C(O)[C@@H]3[C@H]4CC[C@H](C4)[C@@H]3N(Cc3ccc(F)cc3)C1=O)N2`?
Synergy Volume ([1]; combination with compound 18, 72 h, MacSynergy II, Bliss independence model): 29.46 μM^2%; Determination ([1]; combination with compound 18, class from synergy volume): Synergistic (volumes in the 25-100 range indicate synergistic behavior)

Which EC50 [2] does the source give for `CC(C)OC(=O)[C@H](C)NP(=S)(OC[C@@]1(F)O[C@@H](n2ccc(=O)[nH]c2=O)[C@](C)(O)[C@@H]1O)Oc1ccccc1` (stereo partly shown) here?
Its EC50 is 1 to 10 µM.

With `C#C[C@]1(F)[C@H](n2ccc(=O)[nH]c2=O)O[C@](F)(COP(=O)(O)OP(=O)(O)OP(=O)(O)O)[C@H]1O` as the compound, how does the IC50 (NS5B570-Con1 (Delta-21)) read?
Its IC50 is less than 1 µM.
